Legend:
[1] = tested on: poxin; assay: Poxin cGAMP hydrolysis tracking, FP assay detection; type: biochemical, Orthopoxvirus; settings: poxin 5 nM, 50 μM cGAMP
[2] = tested on: poxin; assay: Poxin cGAMP hydrolysis tracking, HPLC analysis; type: biochemical, Orthopoxvirus; settings: poxin 5 nM, 50 μM cGAMP

SMILES: Nc1nc2c(ncn2[C@@H]2O[C@@H]3COP(=O)(O)O[C@H]4[C@@H](O)[C@H](n5cnc6c(N)ncnc65)O[C@@H]4COP(=O)(O)O[C@@H]2[C@@H]3O)c(=O)[nH]1 [cGAMP, 2′3-cGAMP]
- cGAMP percent cleavage FP Assay ([1]; 0 min): 0%
- cGAMP percent cleavage FP Assay ([1]; 10 min): 28%
- cGAMP percent cleavage FP Assay ([1]; 20 min): 60%
- cGAMP percent cleavage FP Assay ([1]; 30 min): 78%
- cGAMP percent cleavage FP Assay ([1]; 40 min): 89%
- cGAMP percent cleavage FP Assay ([1]; 50 min): 98%
- cGAMP percent cleavage FP Assay ([1]; 70 min (assumed 100% cleavage)): 100%
- cGAMP percent cleavage HPLC ([2]; 0 min): 0%
- cGAMP percent cleavage HPLC ([2]; 10 min): 32%
- cGAMP percent cleavage HPLC ([2]; 20 min): 59%
- cGAMP percent cleavage HPLC ([2]; 30 min): 71%
- cGAMP percent cleavage HPLC ([2]; 40 min): 83%
- cGAMP percent cleavage HPLC ([2]; 50 min): 92%
- cGAMP percent cleavage HPLC ([2]; 60 min): 97%
- cGAMP percent cleavage HPLC ([2]; 70 min (product peak assumed 100% cleavage)): 100%
